Compound potency records, mixed from different reports. Data source: NIAID ChemDB in PubChem.

Shared fields: whole-cell or culture tests

Percent inhibition refers to the dose given; in toxicity tests it is the harm to the cells. Conditions beyond the fields shown may differ between rows. An empty or dashed field is not shown. ECn is the concentration giving n% inhibition of infection, replication or growth.

| SMILES | agent | strain | cell line | endpoint | tested at | value |
|---|---|---|---|---|---|---|
| CC1(CO)CCC(Cn2nnc3c(N)nc(N)nc32)C1(C)C | Influenza A virus (H2N2) | JAPAN/305/57 | MDCK | EC50 |  | >50 µg/mL |
| CC1(CO)CCC(Cn2ccc(=O)[nH]c2=O)C1(C)C | Influenza A virus (H2N2) | JAPAN/305/57 | MDCK | EC50 |  | >100 µg/mL |
| CCC(CC)[C@H](NC(C)=O)[C@@H]1[C@H](O)[C@@H](C(=O)O)C[C@H]1N=C(N)N | Influenza A virus | H5N1 A/gull/PA/4175/83 | MDCK | EC50 |  | 0.02 µM |
| NC12CC3CC(CC(C3)C1)C2 | Influenza A virus (H2N2) | A2/ADACHI | CEF | inhibition | 46.8 µg/mL | 98.2% |
| COc1ncnc2c1ncn2[C@@H]1O[C@H](CO)[C@@H](O)[C@@H]1O | Influenza A virus (H1N9) | NWS |  | EC50 |  | >100 µM |
| CC1(CO)CCC(Cn2nnc3c(N)ncnc32)C1(C)C | Influenza A virus (H2N2) | JAPAN/305/57 | MDCK | EC50 |  | >50 µg/mL |
| CCCCCCCCCCOc1ccc(/C(C)=N/N=C(/N)SC)cc1 | Influenza A (H3N2) | A2/ADACHI | Chorioallantoic membrane | EC50 |  | 200 µg/mL |
| [N-]=C=Nc1nncs1 | Influenza A virus | H7N1 A/Rostock | MDCK | EC50 |  | <10 µg/mL |
| COc1ccc2cc1Oc1ccc(cc1)CC1c3cc(c(OC)cc3CCN1C)Oc1c(OC)c(OC)c(OC)c3c1C(C2)N(C)CC3 | Influenza A virus | A/Weybridge | CEF | EC50 |  | >20 µM |
| CC[C@@H](O)C1=C[C@@H](n2cnc3c(N)ncnc32)[C@H](O)[C@@H]1O | Influenza A virus | H2N2 JAPAN 57 | MDCK | EC50 |  | >250 µg/mL |
| CC1(CO)CCC(Cn2cnc3c(Cl)nc(N)nc32)C1(C)C | Influenza A virus (H2N2) | JAPAN/305/57 | MDCK | EC50 |  | >50 µg/mL |
| C#C[C@@H](O)C1=C[C@@H](n2cnc3c(N)ncnc32)[C@H](O)[C@@H]1O | Influenza A virus | H2N2 JAPAN 57 | MDCK | EC50 |  | >50 µg/mL |
| C/C=C\[C@@H]1C[C@H](C(=O)O)N[C@H]1[C@@H](NC(C)=O)[C@](C)(CCC)OC | Influenza A virus | H3N2 TOKYO/3/67 | MDCK | EC50 |  | 0.0059 µM |
| CC1(CO)CCC(Cn2cnc3c(=O)[nH]c(N)nc32)C1(C)C | Influenza A virus (H2N2) | JAPAN/305/57 | MDCK | EC50 |  | >50 µg/mL |
| CC(=O)N[C@H]1[C@H]([C@H](O)[C@H](O)CO)OC(C(=O)O)=C[C@@H]1N=C(N)N | Influenza A virus | H5N1 A/duck/MN/1525/81 | MDCK | EC50 |  | 0.2 µM |
| C=C[C@H](O)C1=C[C@@H](n2cnc3c(N)ncnc32)[C@H](O)[C@@H]1O | Influenza A virus | H2N2 JAPAN 57 | MDCK | EC50 |  | >250 µg/mL |
| CC(=O)N[C@H]1[C@H]([C@H](O)[C@H](O)CO)OC(C(=O)O)=C[C@@H]1N=C(N)N | Influenza A virus | H5N8 A/DK/IRE/83 | MDCK | EC50 |  | 0.0033 µM |
| CCC(CC)[C@H](NC(C)=O)[C@@H]1C[C@@H](C(=O)O)C[C@H]1N=C(N)N | Influenza A virus | H5N1 A/gull/PA/4175/83 | MDCK | EC50 |  | 0.03 µM |